Data source: PubChem BioAssay AID1259414 (Drosophila RNAi Screening Center, 2018)

- Test: 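Genome-wide screen for host control of endosymbiont load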 (primary screen)
- Cell system: Drosophila JW18 cells infected with Wolbachia
- Knock-down reagent: long dsRNA against Drosophila genes, 0.25 µg dsRNA per well of a 384-well plate
- Timing: 5 days
- Challenge: cells persistently infected with Wolbachia before knock-down; no added drug
- Measurement: 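Imaged fluorescence in situ signal for Wolbachia 23S rRNA per DAPI-counted host cell, given as a robust z-score within each plate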
- Reading the numbers: Wolbachia per cell robust z: higher = more Wolbachia per host cell than the plate typical
- Rule for the call: 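Hit when robust z is 1.5 or more, or -1.5 or less, in at least two of three replicates; excludes dsRNAs with several or no targets, genes not expressed in JW18 and well A1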
The deposit covers about 24,000 reagents; this is a random part of those with a known target gene and a result. In the full data, about 1,210 (5%) were called active. 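Inactive calls also include excluded dsRNAs with several or no targets, genes unexpressed in JW18, and well A1, regardless of score.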 Entries without a mark were called inactive. Reagents against one gene are numbered here. A plus sign joins genes that one reagent is predicted to hit. Reagent sequences are not shown.

| target | dsRNA no. | Wolbachia per cell robust z, rep 1 | Wolbachia per cell robust z, rep 2 | Wolbachia per cell robust z, rep 3 |
| --- | --- | --- | --- | --- |
| mts | 1 | 1.31 | 2.12 | 1.22 |
| Coa7 | 1 | 1.31 | 0.139 | 0.546 |
| Coa7 | 2 | -0.531 | -2.19 | 0.101 |
| CG41520 | 1 | -1.19 | -1.27 | -0.432 |
| CG41520 | 2 | -0.0985 | 0.147 | 0.888 |
| gNacalpha | 1 | -0.815 | -1.93 | -0.0409 |
| gNacalpha | 2 | 0.681 | 0.808 | 0.37 |
| Pgant35A + asRNA:CR43463 | 1 | -0.516 | 0.278 | 0.32 |
| Pgant35A + asRNA:CR43463 | 2 | 0.186 | 0.402 | 0.906 |
| mRpL20 | 1 | -0.627 | 0.127 | 0.352 |
| CG33494 | 1 | 0.0877 | -0.327 | -1.26 |
| Ran-like | 1 | -0.145 | -7.82 | 1.05 |
| CG15916 | 1 | 0.301 | -2.45 | 0.198 |
| CG16749 | 1 | -1.13 | -0.148 | -4.01 |
| CG16749 | 2 | -0.894 | -0.0947 | -2.15 |
| Hmt-1 | 1 | 0.873 | -0.144 | 0.0128 |
| CG9426 | 1 | -0.143 | 1.54 | -10.8 |
| 18w | 1 | 1.48 | 1.49 | -0.0462 |
| 18w | 2 | 2.1 | 0.311 | -0.691 |
| CG2955 | 1 | -2.07 | -0.786 | -0.587 |
| UQCR-Q | 1 | -0.758 (active) | -1.99 | -2.02 |
| CG2921 | 1 | -0.644 | -0.0324 | -0.85 |
| CG2921 | 2 | 0.921 | 0.922 | 0.00255 |
| CG5953 | 1 | -1.05 | -0.339 | -2.1 |
| CG5953 | 2 | -0.11 | -2.49 | 0.204 |
| Jon99Ciii | 1 | -0.275 | 1.19 | 1.27 |
| CG15545 | 1 | 0.684 | 0.194 | -4.13 |
| CG15545 | 2 | 0.145 | -6.59 | 0.625 |
